A mixed list of measured activities; the numbers were collected in NIAID ChemDB.

Shared fields: tests in culture; agent: Mycobacterium tuberculosis

Blank or dashed fields: not listed here. Two numbers with a dash give a range or band. Inhibition is in % at the dose shown (toxicity tests: loss of growth or viability). A number after MIC or MFC names an inhibition level or a share of isolates. Rows are shuffled and stem from different studies. ECn is the concentration giving n% inhibition of infection, replication or growth. MIC bound: limit read from a one-dose screen.

smiles	read by	strain	read-out	tested at	cell line	changes	result
NC[C@H]1O[C@H](O[C@@H]2[C@H](O)[C@@H](O[C@H]3O[C@H](CO)[C@@H](O)[C@H](N)[C@H]3O)[C@H](N)C[C@@H]2N)[C@H](O)[C@@H](O)[C@@H]1O	resazurin	H37Ra	MIC				2.5 µg/mL
CO/N=C(/CN1CCN(c2cc3c(cc2F)c(=O)c(C(=O)O)cn3C2CC2)CC1)c1ccco1		H37Rv	inhibition	6.25 µg/mL			45%
O=C(Nc1ccc(Br)cc1)c1ccccc1O		CNCTC MY 331/8	MIC				16 µM
Cc1ccccc1N=Nc1c(O)c2ccccc2n(C)c1=O	resazurin	H37Rv	MIC				<6.25 µg/mL
O=C(NCc1ccc(Cl)c(Cl)c1)c1ncccc1S		CNCTC MY 331/8	MIC				32 µM
Cc1[nH]c(N)nc(=S)c1CCC(=O)Nc1ccc(C(=O)NC(CCC(=O)O)C(=O)O)cc1	BACTEC	H37Rv	inhibition	12.5 µg/mL			-4%
O=C(O)c1cn(C2CC2)c2cc(N3CCN(C/C(=N/OCc4ccccc4)c4ccco4)CC3)c(F)cc2c1=O		H37Rv	inhibition	6.25 µg/mL			74%
CC(C)[C@H]1CO[C@]23CC[C@H](N(Cc4ccc(C(F)(F)F)cc4)C[C@@H]4CCCN4C(=O)OC(C)(C)C)C[C@H]2CCC(=O)N13	resazurin		MIC				<0.5 µM
O=C(c1cn(-c2cccc3ccccc23)nn1)c1cccs1		H37Rv	inhibition	12.5 µg/mL			0%
CO[C@@H]1[C@@H](O[C@@H]2O[C@H](C)[C@@H](O[C@H]3C[C@@](C)(O)[C@@H](OC(=O)CC(C)C)[C@H](C)O3)[C@H](N(C)C)[C@H]2O)[C@@H](CC=O)C[C@@H](C)[C@@H](O)/C=C/C=C/C[C@@H](C)OC(=O)C[C@H]1OC(C)=O		190 isolates	MIC90				128 µg/mL
Cc1cc2nc3ccc(O)cc3nc2cc1N	BACTEC	H37Rv	MIC bound				>12.5 µg/mL
CO[C@@]1(NC(=O)Cc2cccs2)C(=O)N2C(C(=O)O)=C(COC(N)=O)CS[C@@H]21		190 isolates	MIC90				>128 µg/mL
O=C(Nc1ccc(F)cc1)c1ccccc1O		CNCTC MY 331/8	MIC				62.5 µM
CC(C)[C@H]1CO[C@]23CC[C@H](NCc4cc(C(F)(F)F)nc5c(F)cccc45)C[C@H]2CCC(=O)N13	resazurin		MIC				0.5–5 µM
Cc1ccc2c(O)c(N=Nc3ccccc3Cl)c(=O)[nH]c2c1	resazurin	H37Rv	MIC				>6.25 µg/mL
CC(=O)OCC1OC(Nn2c(=O)[nH]c3ccccc3c2=O)C(OC(C)=O)C(OC(C)=O)C1OC(C)=O	resazurin	H37Rv	MIC bound				>6.25 µg/mL
O=C1/C(=C/c2ccc(OC(=O)c3ccccc3)cc2)CCC/C1=C\c1ccc(OC(=O)c2ccccc2)cc1		H37Rv	EC50				>12.5 µg/mL
COc1ccccc1NC(=O)/C(C=NC(=S)c1ccncc1)=C(\C)O	resazurin	H37Rv	inhibition	6.25 µg/mL			-110%
CCn1cc(C(=O)O)c(=O)c2cc(F)c(-n3cccc3)cc21		190 isolates	MIC90				32 µg/mL
CCOC(=O)c1c2c(n(-c3ccccc3)c1C)C(=O)c1ccccc1C2=O	resazurin	H37Rv	inhibition	6.25 µg/mL			-6%
CC(C)[C@H]1CO[C@]23CC[C@H](N(Cc4ccc(C(F)(F)F)nc4)CC4CC4)C[C@H]2CCC(=O)N13	resazurin		MIC				<0.5 µM
O=C(O)c1cn(C2CC2)c2cc(N3CCN(C/C(=N/O)c4cccs4)CC3)c(F)cc2c1=O		H37Rv	MIC				>6.25 µg/mL
CC1(C)S[C@@H]2[C@H](NC(=O)[C@H](N)c3ccc(O)cc3)C(=O)N2[C@H]1C(=O)O		190 isolates	MIC90				>128 µg/mL
Cc1ccc(NC2=CC(=O)C(=O)c3ccccc32)cc1	resazurin	H37Rv	inhibition	6.25 µg/mL			102%
Cc1cc(C)c(C(=O)c2cn(-c3ccccc3)nn2)c(C)c1		H37Rv	MIC				>12.5 µg/mL
O=C1CC(N2C(=O)c3ccccc3C2=O)C(=O)O1	BACTEC	H37Rv	MIC bound				>12.5 µg/mL
CC(C)[C@H]1CO[C@]23CC[C@H](N(CCCCS(C)(=O)=O)Cc4ccc(C(F)(F)F)cc4)C[C@H]2CCC(=O)N13	resazurin		MIC				<0.5 µM
O=C(O)c1cn(C2CC2)c2cc(N3CCN(C/C(=N/O)c4ccco4)CC3)c(F)cc2c1=O		H37Rv	MIC				>6.25 µg/mL
COc1ccc(N=Nc2c(O)c3c(Cl)ccc(Cl)c3[nH]c2=O)c(C)c1	resazurin	H37Rv	inhibition	6.25 µg/mL			40%
CCn1cc(C(=O)O)c(=O)c2cc(F)c(N3CCNCC3)cc21		190 isolates	MIC90				16 µg/mL
O=C(c1cn(O)nn1)c1ccc(Br)cc1Br		H37Rv	MIC				>12.5 µg/mL
O=C(/C=C/c1ccc(Cl)cc1)Oc1ccc(/C=C2\CCC/C(=C\c3ccc(OC(=O)/C=C/c4ccc(Cl)cc4)cc3)C2=O)cc1		H37Rv	inhibition	12.5 µg/mL			0%
CO[C@H]1/C=C/O[C@@]2(C)Oc3c(C)c(O)c4c(O)c(c5c(c4c3C2=O)NC2(CCN(CC(C)C)CC2)N=5)=NC(=O)/C(C)=C\C=C\[C@H](C)[C@H](O)[C@@H](C)[C@@H](O)[C@@H](C)[C@H](OC(C)=O)[C@@H]1C		1 isolates (Gln513Pro)	MIC				>5 µg/mL
COC(=O)[C@@]1(C)CCC[C@@]2(C)c3cc(Br)c(C(C)C)cc3CC[C@H]21	BACTEC	H37Rv	inhibition	6.25 µg/mL			0%
COc1ccc(/C=C/C(=O)Oc2ccc(/C=C3\CCCCC3=O)cc2)cc1		H37Rv	inhibition	12.5 µg/mL			1%
CC(C)[C@H]1CO[C@]23CC[C@H](N(Cc4ccc(C(F)(F)F)cc4)C[C@H]4CCCN4)C[C@H]2CCC(=O)N13	resazurin		MIC				0.5–5 µM
CC1(C)CC(=O)c2c(nc(SSc3nc4c(c(-c5ccc(Br)cc5)c3C#N)C(=O)CC(C)(C)C4)c(C#N)c2-c2ccc(Br)cc2)C1	BACTEC	H37Rv	inhibition	12.5 µg/mL			23%
O=C(NNc1ccccc1)N1CCN(c2nc(N3CCN(c4ccccc4)CC3)c3ccccc3n2)CC1	BACTEC / fluorescence	H37Rv	MIC				>6.25 µg/mL
O=c1[nH]c2cc(Cl)ccc2c(O)c1N=Nc1ccccc1	resazurin	H37Rv	inhibition	6.25 µg/mL			76%
O=C(c1cn(-c2cccc3ccccc23)nn1)c1ccc(Cl)cc1Cl		H37Rv	MIC				>12.5 µg/mL
O=C1NC(CN2CCC(O)CC2)C(=O)NC1CN1CCC(O)CC1	BACTEC	H37Rv	MIC bound				>12.5 µg/mL
CN(C)CC1CCC/C(=C\c2ccc(OC(=O)/C=C/c3ccc(Br)cc3)cc2)C1=O		H37Rv	EC50				<12.5 µg/mL
NNC(=O)c1ccc([N+](=O)[O-])cc1	BACTEC	H37Rv	MIC bound				>12.5 µg/mL
Cc1ccc(NC(=O)c2ncccc2O)cc1		CNCTC MY 331/8	MIC				125 µM
CC(C)[C@H]1CO[C@]23CC[C@H](N(Cc4ccc(C(F)(F)F)cc4)C4CCC(C)(O)CC4)C[C@H]2CCC(=O)N13	resazurin		MIC				<0.5 µM
C[C@@H]1CC[C@@]2(OC1)O[C@H]1C[C@H]3[C@@H]4CC[C@H]5C[C@@H](O)CC[C@]5(C)[C@H]4C(=O)C[C@]3(C)[C@H]1[C@@H]2C	BACTEC	H37Rv	MIC bound				>12.5 µg/mL
O=C(NCc1cccc(Cl)c1)c1ncccc1S		CNCTC MY 331/8	MIC				16 µM
Cc1coc(C)c1C(=O)c1cn(-c2ccc(Cl)cc2)nn1		H37Rv	MIC				>12.5 µg/mL
O=C(NCc1ccc(F)cc1)c1ncccc1O		CNCTC MY 331/8	MIC				250 µM
CO/N=C(\C(=O)N[C@@H]1C(=O)N2C(C(=O)O)=C(COC(C)=O)CS[C@H]12)c1csc(N)n1		190 isolates	MIC90				>128 µg/mL
CC1=NN(C(=O)c2ccccn2)C(=O)C1N=Nc1ccc(S(=O)(=O)Nc2ncccn2)cc1	BACTEC	H37Rv	MIC bound				>12.8 µg/mL
CCn1cc(C(=O)O)c(=O)c2cc(F)c(N3CCN(C/C(=N/OCc4ccccc4)c4cccs4)CC3)cc21		H37Rv	inhibition	6.25 µg/mL			48%
CC(C)[C@H]1CO[C@]23CC[C@H](N(Cc4ccc(C(F)(F)F)cc4)CC4CCNCC4)C[C@H]2CCC(=O)N13	resazurin		MIC				<0.5 µM
O=C(Nc1ccc(N=Nc2ccc(S(=O)(=O)[O-])cc2)cc1)c1ccc(N=Nc2c(S(=O)(=O)[O-])cc(O)c3c(NC(=O)c4ccccc4)cc(S(=O)(=O)[O-])cc23)cc1.[Na+].[Na+].[Na+]	BACTEC	H37Rv	MIC bound				>12.5 µg/mL
CC(C)[C@H]1CO[C@]23CC[C@H](N(Cc4ccc(C(F)(F)F)cc4)CC4CNC4)C[C@H]2CCC(=O)N13.O=CO	resazurin		MIC				0.5–5 µM
O=C(c1cn[nH]n1)c1ccc(Cl)cc1Cl		H37Rv	MIC				>12.5 µg/mL
FC(F)(F)c1ccc2c(c1)N(CCCN1CCN(C3CC3)CC1)c1ccccc1S2		H37Rv	MIC				12.5 µg/mL
CC1(C)S[C@@H]2[C@H](NC(=O)[C@H](C(=O)[O-])c3ccsc3)C(=O)N2[C@H]1C(=O)[O-].[Na+].[Na+]		190 isolates	MIC90				>128 µg/mL
Cc1ccc(C(=O)Oc2ccc(/C=C3\CCCCC3=O)cc2)cc1		H37Rv	EC50				<12.5 µg/mL
COc1ccc2nccc3c2c1NC(Cl)=C3	BACTEC	H37Rv	MIC bound				>12.5 µg/mL
CCOC(=O)c1cc(C(=O)c2ccc(F)cc2)n2ccc(C(=O)OC(C)C)cc12	resazurin		MIC			MDR-MTB	4 µg/mL
O=C(O)c1ccc(Sc2nnc(N3CCN(c4nc(N5CCN(c6ccccc6)CC5)c5ccccc5n4)CC3)o2)cc1	BACTEC / fluorescence	H37Rv	inhibition	6.25 µg/mL			0%
CC[C@H]1OC(=O)[C@H](C)[C@@H](O[C@H]2C[C@@](C)(OC)[C@@H](O)[C@H](C)O2)[C@H](C)[C@@H](O[C@@H]2O[C@H](C)C[C@H](N(C)C)[C@H]2O)[C@](C)(O)C[C@@H](C)/C(=N\OCOCCOC)[C@H](C)[C@@H](O)[C@]1(C)O		190 isolates	MIC90				4 µg/mL
CC(C)C12C=C3CC[C@H]4[C@](C)(C(=O)O)CCC[C@]4(C)[C@]3(CC1)OO2	resazurin	H37Ra	MIC				50 µg/mL
COc1cc(C2c3cc4c(cc3C(OC3OC(CO)C(O)C(O)C3O)C3COC(=O)C23)OCO4)cc(OC)c1OC	BACTEC	H37Rv	MIC bound				>12.5 µg/mL
O=C(NCc1ccccc1)c1ncccc1S		CNCTC MY 331/8	MIC				8 µM
O=[N+]([O-])c1cccc(Sc2nnc(N3CCN(c4nc(N5CCN(c6ccccc6)CC5)c5ccccc5n4)CC3)o2)c1	agar / visual reading	H37Rv	MIC				25 µg/mL
CC(=O)c1ccc(N=Nc2c(O)c3cccc(Cl)c3[nH]c2=O)cc1	resazurin	H37Rv	MIC				>6.25 µg/mL
CC(=O)Nc1nc(NC(C)=O)c(N=O)c(NC(C)=O)n1	BACTEC	H37Rv	inhibition	12.5 µg/mL			87%
CCOC(=O)c1cn(-c2ccccc2)nn1		H37Rv	inhibition	12.5 µg/mL			0%
O=c1[nH]c2cc([N+](=O)[O-])ccc2c(O)c1N=Nc1ccc(Br)cc1	resazurin	H37Rv	inhibition	6.25 µg/mL			100%
O=Cc1ccc(Sc2nnc(N3CCN(c4nc(N5CCN(c6ccccc6)CC5)c5ccccc5n4)CC3)o2)cc1	agar / visual reading	H37Rv	inhibition	25 µg/mL			91%
CCCCCCCCC/C=N/Nc1ccc([N+](=O)[O-])cn1	BACTEC	H37Rv	MIC bound				≤12.5 µg/mL
O=C(Nc1cccc(F)c1)c1ncccc1S		CNCTC MY 331/8	MIC				32 µM
O=C(CCc1ccccc1)Oc1ccc(/C=C2\CCCCC2=O)cc1		H37Rv	inhibition	12.5 µg/mL			0%
Cc1ccc(NC(=S)NC(=O)C(C)Oc2ccccc2)cc1Cl		H37Rv	MIC		VERO		12.5 µg/mL
CC(=O)c1ccccc1NNC(=O)N1CCN(c2nc(N3CCN(c4ccccc4)CC3)c3ccccc3n2)CC1	BACTEC / fluorescence	H37Rv	inhibition	6.25 µg/mL			0%
O=C(NCc1ccc([N+](=O)[O-])cc1)c1ncccc1S		CNCTC MY 331/8	MIC				8 µM